{"source": "paper PMC9708728", "about": "(Frontiers in Immunology, 2022)", "binders": {"B1": {"name": "human angiotensin-converting enzyme II fused to a human IgG Fc fragment (hACE2-Fc) (Fc fusion)", "chain": "not shown"}}, "target": "SARS-CoV-2 RBD ([…]) with a C-terminal His tag (SARS-CoV-2)", "assay": "ELISA", "details": "both partners purified", "data": [{"binder": "B1", "values": [{"measurement": "EC50", "result": 9.1, "unit": "nM"}]}]}
